A mixed list of measured activities; the numbers were collected in NIAID ChemDB.

All rows: growth or infection tests; agent: Mycobacterium tuberculosis

A number after MIC or MFC names an inhibition level or a share of isolates.

SMILES,method,cells,strain or isolate,dose,measure,result
Clc1cn2cc(-c3ccccc3)nc2s1,,,H37Rv,,MIC,>6.25 µg/mL
CC1=NN(C(=O)c2cccnc2)C(=O)C1N=Nc1ccc(S(=O)(=O)Nc2nc(C)cc(C)n2)cc1,BACTEC,,H37Rv,,MIC,≥12.8 µg/mL
CCCCn1c(-c2ccc(OC)cc2)cs/c1=N\N=C1/C(=O)Nc2ccccc21,,,H37Rv,,EC50,12 µg/mL
CCCCCOc1ccccc1NC(=O)OCC[N+]1(CCC)CCCCC1,,,My 331/88,,MIC,250 µM
CN1C(=O)C(=O)N(Cc2ccco2)C1=O,BACTEC,,H37Rv,12.5 µg/mL,inhibition,0%
C=CCNC(=S)N=Nc1c(O)[nH]c2ccc(Br)cc12,,,H37Rv,12 µg/mL,inhibition,53%
CN1CCN(Cc2ccccc2NC(=O)c2ccc(-c3ccccc3)cc2)CC1,,,103471,,MIC,>16 µg/mL
CCCCCCCC[N+]1(CCOC(=O)Nc2ccccc2OCCCCCC)CCCCC1,,,My 331/88,,MIC,8 µM
Cc1nc2c(sc3ccccc3n2C)c2nc3c(sc4ccccc4n3C)c(C)c12,BACTEC,,H37Rv,,MIC,≥12.5 µg/mL
O=c1oc2ccccc2c(O)c1C1=CC(c2ccc([N+](=O)[O-])cc2)Sc2ccccc2N1,resazurin,,H37Rv,,MIC,<6.25 µg/mL
COc1cccc(-c2cn3cc(Cl)sc3n2)c1,,,H37Rv,,MIC,>6.25 µg/mL
CS(C)=O.CS(C)=O.CS(C)=O.CS(C)=O.[Cl][Ru][Cl],resazurin,,H37Rv,,MIC,>6.25 µg/mL
O=Nc1c(-c2ccc(Cl)cc2)nc2sccn12,,,H37Rv,,MIC,0.39 µg/mL
CCCCCOc1ccccc1NC(=O)OCC[N+]1(Cc2ccccc2)CCCCC1,,,My 331/88,,MIC,16 µM
NNC(=O)c1cccnc1,BACTEC,,H37Rv,12.5 µg/mL,inhibition,0%
Cc1ccc(-c2cn3ccsc3n2)cc1,,,H37Rv,6.25 µg/mL,inhibition,0%
Cc1ccc2c(c1)[n+](=O)c(C(=O)NCc1ccc(C(F)(F)F)cc1)c(C)n2[O-],resazurin,,H37Rv,,EC90,>100 µg/mL
CCCCCCCCCCCCCCCCC(=O)OCCc1ccc(O)cc1,,,H37Rv (ATCC 27294),,MIC,>128 µg/mL
Cc1ccc2oc(=O)c(C3=Nc4ccccc4NC(c4cccc(O)c4)C3)c(O)c2c1,resazurin,,H37Rv,,MIC,>6.25 µg/mL
N=C(N)N.O=S(=O)(O)[O][Al]1[O]S(=O)(=O)[O]1,BACTEC,,H37Rv,12.5 µg/mL,inhibition,3%
CC(C)Cc1cnc(C(=O)/C=C/c2ccc(Br)cc2)cn1,absorbance,,H37Rv,,MIC,>100 µg/mL
CCNc1c(C)c2c3c4c1C(=O)C(=C(/C=N/N1CCN(C)CC1)C4O)NC(=O)/C(C)=C\C=C\[C@H](C)[C@H](O)[C@@H](C)[C@@H](O)[C@@H](C)[C@H](OC(C)=O)[C@H](C)[C@@H](OC)/C=C/O[C@@](C)(O2)C3=O,resazurin,,,,MIC90,>4.7 µM
C[C@H](O)[C@H]1C(=O)N2C(C(=O)O)=C(S[C@@H]3CN[C@H](C(=O)Nc4cccc(C(=O)O)c4)C3)[C@H](C)[C@H]12,resazurin,,H37Rv,,MIC,>80 µM
Cc1oc2c(C)c3oc(=O)cc(C)c3cc2c1CN1C(=O)[C@@H]2OCCOCCOCCOCCOCCO[C@H]2C1=O,resazurin,,H37Rv,,MIC bound,>6.25 µg/mL
C=CCNc1c(C)c2c3c4c1C(=O)C(=C(/C=N/N1CCN(C)CC1)C4O)NC(=O)/C(C)=C\C=C\[C@H](C)[C@H](O)[C@@H](C)[C@@H](O)[C@@H](C)[C@H](OC(C)=O)[C@H](C)[C@@H](OC)/C=C/O[C@@](C)(O2)C3=O,resazurin,,,,MIC90,>4.6 µM
CCCCCCCCCCCCCCCCCCCCCCC(=O)OCCc1ccc(O)cc1,,,H37Rv (ATCC 27294),,MIC,>128 µg/mL
CCOC(=O)c1s/c(=N\N=C2/C(=O)Nc3ccccc32)n(-c2ccc(C)cc2)c1C,,,H37Rv,,MIC,>12.5 µg/mL
CSc1ccc(C2CC(c3c(O)c4cc(C)ccc4oc3=O)=Nc3ccccc3N2)cc1,resazurin,,H37Rv,,MIC,>6.25 µg/mL
FC(F)(F)c1cccc(-c2cn3ccsc3n2)c1,,,H37Rv,,MIC,>6.25 µg/mL
CCCCCCC[N+]1(CCOC(=O)Nc2ccccc2OCCCCCC)CCCCC1,,,My 331/88,,MIC,8 µM
CCCCCCCCCC(=O)N[C@H]1[C@H](Oc2c3cc4cc2Oc2ccc(cc2Cl)[C@@H](O[C@@H]2O[C@H](CO)[C@@H](O)[C@H](O)[C@H]2NC(C)=O)[C@@H]2NC(=O)[C@H](NC(=O)[C@@H]4NC(=O)[C@H]4NC(=O)[C@@H](Cc5ccc(c(Cl)c5)O3)NC(=O)[C@H](N)c3ccc(O)c(c3)Oc3cc(O)cc4c3)c3ccc(O)c(c3)-c3c(O[C@H]4O[C@H](CO)[C@@H](O)[C@H](O)[C@@H]4O)cc(O)cc3[C@H](C(=O)O)NC2=O)O[C@H](CO)[C@@H](O)[C@@H]1O,,,L1914,,MIC,64 µg/mL
COC(=O)C1=C(C(=O)OC)C2(C(=O)OC)OC1(OC)C(C1(C(=O)OC)C(C(=O)OC)=C1C(=O)OC)=C2C(=O)OC,BACTEC,,H37Rv,,MIC bound,>12.5 µg/mL
CCCCc1cnc(C(=O)/C=C/c2ccccc2Br)cn1,absorbance,,H37Rv,,MIC,25 µg/mL
COc1ccc(/C=N/N=C(N)/C(N)=N/N=C/c2ccc(OC)cc2)cc1,BACTEC,,H37Rv,,MIC bound,>12.5 µg/mL
CCNC(=S)N=Nc1c(O)[nH]c2ccccc12,,,H37Rv,,EC50,>12 µg/mL
CCc1ccccc1NC(=O)c1c(C)n([O-])c2ccc(C)cc2[n+]1=O,resazurin,VERO,H37Rv,,EC90,8.62 µg/mL
C=CCN=C(N=Nc1c(O)[nH]c2ccccc12)SCC(=O)c1ccc(Br)cc1,,,H37Rv,,MIC,>12.5 µg/mL
CO[C@H]1/C=C/O[C@@]2(C)Oc3c(c4c(O)cc(c5nn(CCO)c(c3C)c45)=NC(=O)/C(C)=C\C=C\[C@H](C)[C@H](O)[C@@H](C)[C@@H](O)[C@@H](C)[C@H](OC(C)=O)[C@@H]1C)C2=O,low oxygen,,,,MIC90,>21.7 µM
CCCCCOc1ccccc1NC(=O)OCC[N+]1(CCCC)CCCCC1,,,My 331/88,,MIC,62.5 µM
CCCCN1C(=O)C(C)S/C1=N/N=C1\C(=O)Nc2ccc(Br)cc21,,,H37Rv,12 µg/mL,inhibition,18%
CN(C)CCCNC(=O)c1cn2c(ccc3sc4ccccc4c(=O)c32)n1,BACTEC,,H37Rv,12.5 µg/mL,inhibition,40%
CCc1ccccc1NC(=O)c1c(C)n([O-])c2ccc(F)cc2[n+]1=O,resazurin,VERO,H37Rv,,EC90,0.504 µg/mL
C[C@H](O)[C@H]1C(=O)N2C(C(=O)O)=C(S[C@@H]3CN[C@H](C(=O)N(C)C)C3)[C@H](C)[C@H]12,luminescence,THP-1,H37Rv,,MIC90,17.01 µM
CCCCCCCC[N+]1(CCOC(=O)Nc2ccccc2OCCCCC)CCCCC1,,,My 331/88,,MIC,8 µM
CCCc1cnc(C(=O)/C=C/c2ccccc2F)cn1,absorbance,,H37Rv,,MIC,12.5 µg/mL
CCCCCCOc1ccccc1NC(=O)OCC[N+]1(CC)CCCCC1,,,My 331/88,,MIC,62.5 µM
Nc1c(S(=O)(=O)O)cc(Nc2cccc(CO)c2)c2c1C(=O)c1ccccc1C2=O,BACTEC,,H37Rv,12.5 µg/mL,inhibition,4%
CCc1ccccc1NC(=O)c1c(C)n([O-])c2ccc(Cl)cc2[n+]1=O,resazurin,VERO,H37Rv,,EC90,<0.2 µg/mL
COc1cc2c(cc1O)CC[n+]1cc3c(OC)c(OC)ccc3cc1-2,BACTEC,,H37Rv,,MIC,≥12.8 µg/mL
CCCc1cnc(C(=O)/C=C/c2ccc(Br)cc2)cn1,absorbance,,H37Rv,,MIC,50 µg/mL
O=c1oc2ccccc2c(O)c1C1=Nc2ccccc2NC(c2cccc(Br)c2)C1,resazurin,,H37Rv,,MIC,>6.25 µg/mL
CCOC(=O)/C=C1/CCCn2c1ncc(C(=O)OCC)c2=O,resazurin,,H37Rv,,MIC bound,>6.25 µg/mL
N#Cc1nc2cc(C(F)(F)F)ccc2nc1N,,,H37Rv,,EC50,<12.5 µg/mL
CC1(C)S[C@@H]2[C@H](NC(=O)[C@H](N)c3ccc(O)cc3)C(=O)N2[C@H]1C(=O)O,resazurin,,H37Rv,42 µg/mL,inhibition,80%
CSc1ccc(C2CC(c3c(O)c4c(C)ccc(C)c4oc3=O)=Nc3ccccc3N2)cc1,resazurin,,H37Rv,,MIC,>6.25 µg/mL
CC(C)Cc1cnc(C(=O)/C=C/c2ccccc2Br)cn1,absorbance,,H37Rv,,MIC,>100 µg/mL
O=c1oc2ccccc2c(O)c1C1=CC(c2ccccc2Cl)Sc2ccccc2N1,resazurin,,H37Rv,,MIC,<6.25 µg/mL
CCCCCCOc1ccccc1NC(=O)OCC[N+]1(CCCC)CCCCC1,,,My 331/88,,MIC,32 µM
N#Cc1nc2cc(C(F)(F)F)ccc2nc1Cl,,,H37Rv,,MIC,>12.5 µg/mL
CC(=O)OC1COC(Nc2nc(NCc3ccccc3)n(C)c(=O)c2N=O)C(OC(C)=O)C1OC(C)=O,resazurin,,H37Rv,,MIC bound,>6.25 µg/mL
O=C(/C=C/c1ccccc1)Nc1cccc(Cn2ccnc2)c1,,,103471,,MIC,>16 µg/mL
CCCCCCCCCCCCCCCCCCCC(=O)OCCc1ccc(OC)cc1,,,H37Rv (ATCC 27294),,MIC,>128 µg/mL
CCCCc1cnc(C(=O)/C=C/c2ccc(Br)cc2)cn1,absorbance,,H37Rv,,MIC,>50 µg/mL
CCOC(=O)c1cccnc1-c1ncccc1C(=O)OCC,resazurin,,H37Rv,,MIC,>6.25 µg/mL
NNC(=O)C1=CN(CCc2ccccc2)C=CC1,BACTEC,,H37Rv,12.5 µg/mL,inhibition,0%
CCCCN=C(N=Nc1c(O)[nH]c2ccc(Br)cc12)SCC(=O)c1ccc(Br)cc1,,,H37Rv,,EC50,<12 µg/mL
O=C(Nc1ccccc1Cn1ccnc1)c1ccc(-c2ccccc2)cc1,,,103471,,MIC,>16 µg/mL
CCCCCCCCCCCCCCCCCCCCCC(=O)OCCc1ccc(O)cc1,,,H37Rv (ATCC 27294),,MIC,>128 µg/mL
O=C(Nc1cccc(Cn2ccnc2)c1)c1ccc(-c2ccccc2)cc1,,,103471,,MIC,>16 µg/mL
CCCCCCCCCCCCCCCCCCCCCCCCCC(=O)OCCc1ccc(O)cc1,,,H37Rv (ATCC 27294),,MIC,>128 µg/mL
O=C1CSC(c2ccccc2[N+](=O)[O-])N1c1nncs1,BACTEC,,H37Rv,12.5 µg/mL,inhibition,7%
O=C(/C=C/c1ccccc1Br)c1cnccn1,absorbance,,H37Rv,,MIC,25 µg/mL
O=C(NCCNC(=O)[C@H]1CCCN1)[C@H]1CCCN1,resazurin,,H37Rv,6.25 µg/mL,inhibition,13%
CCCCn1c(-c2ccc([N+](=O)[O-])cc2)cs/c1=N\N=C1/C(=O)Nc2ccc(Br)cc21,,,H37Rv,12 µg/mL,inhibition,94%
Cc1cc(C=C2C(=O)NC(=S)NC2=O)c(C)n1-c1ccccc1,resazurin,,,6.25 µg/mL,inhibition,76%
CO[C@H]1CCC[C@H]2C1=C(C(=O)O)N1C(=O)[C@H]([C@@H](C)O)[C@@H]21,MTT,,H37Rv,,MIC,3.2 µM
CN(C)c1ccc(/C=C2/C=Cc3ccccc32)c(F)c1,BACTEC,,H37Rv,,MIC bound,>12.5 µg/mL
CC(C)OC(=O)c1cccnc1-c1ncccc1C(=O)OC(C)C,resazurin,,H37Rv,,MIC,>6.25 µg/mL
CC(=O)N[C@H]1[C@@H](O[C@@H]2O[C@H](C[C@@H](O)[C@H]3O[C@@H](n4ccc(=O)[nH]c4=O)[C@H](O)[C@@H]3O)[C@H](O)[C@H](O)[C@H]2NC(=O)/C=C/CC(C)C)O[C@H](CO)[C@@H](O)[C@@H]1O,BACTEC,,H37Rv,,MIC bound,≤12.5 µg/mL
Cc1cccc(/C=N/NC(=S)N(C)C)n1.[Cl][Cu][Cl],,,H37Rv,,MIC90,3.13 µM
O=C(O)c1ccccc1C(=O)NC1C(O)OC(CO)C(O)C1O,BACTEC,,H37Rv,12.5 µg/mL,inhibition,32%
Cc1ccc(C)c2c(O)c(C3=Nc4ccccc4NC(c4cccc(O)c4)C3)c(=O)oc12,resazurin,,H37Rv,,MIC,>6.25 µg/mL

For reference, 6 entries again:

SMILES,method,cells,strain or isolate,dose,measure,result
O=C(Nc1ccccc1Cn1ccnc1)c1ccc(-c2ccccc2)cc1,,,103471,,MIC,>16 µg/mL
CCCCc1cnc(C(=O)/C=C/c2ccccc2Br)cn1,absorbance,,H37Rv,,MIC,25 µg/mL
CCc1ccccc1NC(=O)c1c(C)n([O-])c2ccc(F)cc2[n+]1=O,resazurin,VERO,H37Rv,,EC90,0.504 µg/mL
O=C(NCCNC(=O)[C@H]1CCCN1)[C@H]1CCCN1,resazurin,,H37Rv,6.25 µg/mL,inhibition,13%
C=CCNc1c(C)c2c3c4c1C(=O)C(=C(/C=N/N1CCN(C)CC1)C4O)NC(=O)/C(C)=C\C=C\[C@H](C)[C@H](O)[C@@H](C)[C@@H](O)[C@@H](C)[C@H](OC(C)=O)[C@H](C)[C@@H](OC)/C=C/O[C@@](C)(O2)C3=O,resazurin,,,,MIC90,>4.6 µM
CC1=NN(C(=O)c2cccnc2)C(=O)C1N=Nc1ccc(S(=O)(=O)Nc2nc(C)cc(C)n2)cc1,BACTEC,,H37Rv,,MIC,≥12.8 µg/mL

An empty or dashed field is not shown. MIC bound: limit read from a one-dose screen. Inhibition is in % at the dose shown (toxicity tests: loss of growth or viability). Rows are shuffled and stem from different studies. ECn: concentration that inhibits the pathogen or its effect by n%.